PubChem BioAssay AID1259414 – Drosophila RNAi Screening Center, 2018
Purpose: 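Genome-wide screen for host control of endosymbiont load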 (primary screen). Cells: Drosophila JW18 cells infected with Wolbachia. Reagents: long dsRNA against Drosophila genes, 0.25 µg dsRNA per well of a 384-well plate. Time to read-out: 5 days. Treatment: cells persistently infected with Wolbachia before knock-down; no added drug. Measured: 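Imaged fluorescence in situ signal for Wolbachia 23S rRNA per DAPI-counted host cell, given as a robust z-score within each plate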. Direction: Wolbachia per cell robust z: higher = more Wolbachia per host cell than the plate typical. Hit rule: 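Hit when robust z is 1.5 or more, or -1.5 or less, in at least two of three replicates; excludes dsRNAs with several or no targets, genes not expressed in JW18 and well A1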.
The deposit covers about 24,000 reagents; below is an unselected part of those that have a named target and a result. In the full data, about 1,210 (5%) got an active call. 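Inactive calls also include excluded dsRNAs with several or no targets, genes unexpressed in JW18, and well A1, regardless of score.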 Reagent sequences are not shown.

The opening 3 records, ahead of the listing:
| gene knocked down | amplicon | Wolbachia per cell robust z, rep 1 | Wolbachia per cell robust z, rep 2 | Wolbachia per cell robust z, rep 3 | Outcome |
| --- | --- | --- | --- | --- | --- |
| CG5412 (GeneID 42434) | DRSC15796 | -0.608 | 0.337 | -0.647 | inactive |
| mal (GeneID 33045) | DRSC20581 | 1.38 | 0.328 | -1.04 | inactive |
| mal (GeneID 33045) | DRSC27085 | 0.818 | 1.35 | 0.48 | inactive |

The list itself, from the start:
| gene knocked down | amplicon | Wolbachia per cell robust z, rep 1 | Wolbachia per cell robust z, rep 2 | Wolbachia per cell robust z, rep 3 | Outcome |
| --- | --- | --- | --- | --- | --- |
| CG5412 (GeneID 42434) | DRSC15796 | -0.608 | 0.337 | -0.647 | inactive |
| mal (GeneID 33045) | DRSC20581 | 1.38 | 0.328 | -1.04 | inactive |
| mal (GeneID 33045) | DRSC27085 | 0.818 | 1.35 | 0.48 | inactive |
| asRNA:CR31084 (GeneID 10178907) | DRSC21649 | -0.759 | 0.154 | -1.08 | inactive |
| CG5355 (GeneID 34421) | DRSC02844 | -0.513 | 0.0936 | 0.535 | inactive |
| Faf2 (GeneID 35129) | DRSC03325 | 1.18 | 1.53 | -5.79 | inactive |
| toy (GeneID 43833) | DRSC17222 | -0.878 | 0.0738 | 0.0184 | inactive |
| toy (GeneID 43833) | DRSC25870 | -1.89 | -0.392 | -0.928 | inactive |
| toy (GeneID 43833) | DRSC40699 | 0.37 | 1.41 | 0.572 | inactive |
| RpL8 (GeneID 44251) | DRSC08532 | 2.43 | 1.35 | 0.326 | inactive |
| RpL8 (GeneID 44251) | DRSC08695 | 0.905 | 1.54 | 1.06 | inactive |
| RpL8 (GeneID 44251) | DRSC29905 | 1.95 | 2.4 | 2.79 | active |
| mldr (GeneID 31568) | DRSC18100 | -1.25 | -0.182 | -0.861 | inactive |
| mldr (GeneID 31568) | DRSC27990 | 2.03 | -0.0115 | 1.44 | inactive |
| Cpr (GeneID 33883) | DRSC03293 | 0.676 | 0.484 | -0.794 | inactive |
| Cpr (GeneID 33883) | DRSC28411 | -0.239 | 0.105 | 0.0204 | inactive |
| CG43693 (GeneID 39231) | DRSC09086 | 0.889 | 0.497 | 0.364 | inactive |
| CG43693 (GeneID 39231) | DRSC10625 | 0.452 | 0.44 | 0.37 | inactive |
| CG43693 (GeneID 39231) | DRSC38675 | 0.729 | 1.39 | 0.833 | inactive |
| CG43693 (GeneID 39231) | DRSC41478 | 0.161 | -1.83 | -0.032 | inactive |
| chico (GeneID 64880) | DRSC03531 | -0.304 | 0.27 | -0.0516 | inactive |
| chico (GeneID 64880) | DRSC40864 | -0.721 | -0.221 | -0.362 | inactive |
| Dna2 (GeneID 31934) | DRSC18254 | -0.329 | -0.207 | 0.511 | inactive |
| CG9582 (GeneID 34230) | DRSC03267 | 0.528 | 2.32 | -0.0182 | inactive |
| S1P (GeneID 40399) | DRSC11810 | -1.24 | -0.0952 | -0.677 | inactive |
| CG42458 (GeneID 2768945) | DRSC23129 | -2.59 | -0.125 | -0.255 | inactive |
| CG42458 (GeneID 2768945) | DRSC23261 | 0.746 | 0.466 | 0.419 | inactive |
| CG42458 (GeneID 2768945) | DRSC26691 | 0.875 | 0.514 | 1.25 | inactive |
| CG42458 (GeneID 2768945) | DRSC29831 | -0.155 | -0.398 | -5.05 | inactive |
